Data taken from paper PMC10869273.

What follows are substances tested against HA H4 Hubei (A/swine/Hubei/06/2009(H4N1)) (influenza A virus A/swine/Hubei/06/2009(H4N1)) (assay: BLI).
For MEDI8852 VL T33L Fab, the Kd was 3.6 nM. Work on MEDI8852 UCA VH K58S-V65P IgG yielded a Kd of 80 nM. Substance MEDI8852 VL G95P Fab has a Kd of 0.94 nM. Substance MEDI8852 VH E65P Fab has a Kd of 0.4 nM. In the case of MEDI8852 VL L29V Fab, the Kd is reported as 5.2 nM. In the case of MEDI8852 VH D27F Fab, the Kd is reported as 1.1 nM. Substance MEDI8852 VH T53I Fab has a Kd of 0.72 nM. Substance MEDI8852 VH N74S Fab has a Kd of 0.61 nM. Substance MEDI8852 VH S44G Fab has a Kd of 0.66 nM. Substance MEDI8852 VH M117Y Fab has a Kd of 0.43 nM. With MEDI8852 VL T25A Fab the Kd was 1.7 nM.

These substances were tested against HA H7 HK17 (A/Hong Kong/125/2017(H7N9)) (influenza A virus A/Hong Kong/125/2017(H7N9)) (assay: BLI).
Substance MEDI8852 VH E65P Fab has a Kd of 0.1 nM.
